Results reported in PMC9587031, “Antibiotic polymyxin arranges lipopolysaccharide into crystalline structures to solidify the bacterial membrane” (Nature Communications, 2022).

Experiments:
[1] = test system: E. coli K-12 MG1655 MCR-1 bacteria; experiment: In-cell solid-state 31P-NMR T1ρ relaxation; assay type: cell-based, Escherichia coli; conditions: 31P ssNMR, intact cells, n = 1; untreated 3.7, 4, 4.6
[2] = test system: E. coli K-12 MG1655 WT bacteria; experiment: In-cell solid-state 31P-NMR T1ρ relaxation; assay type: cell-based, Escherichia coli; conditions: 31P ssNMR, intact cells

## Polymyxin E
[1]
  T1ρ, gel phase lipids, MCR1 + colistin: 2.7 ms
[2]; 0.5 μg/ml colistin 2 h room temperature, 280 K, first listed value, untreated 2.6 ms, listed as Colistin
  T1ρ, gel phase lipid, WT + colistin: 4 ms
[2]; 0.5 μg/ml colistin 2 h room temperature, 280 K, first listed value, untreated 2.6 ms, listed as polymyxin E
  T1ρ, gel phase lipid, WT + colistin: 4.0 ms
[2]; first listed value of source data, untreated 10.2
  T1ρ, isotropic phosphates, WT + colistin: 26.6 ms
[2]; second listed value of source data, untreated 2
  T1ρ, gel phase lipid, WT + colistin: 3 ms
